PSTVd loop 15 mutant pool in Nicotiana benthamiana

From the data files of Wu et al. 2024, doi:10.1371/journal.ppat.1012142.

The pool varies loop 15 of the PSTVd intermediate strain in the pattern GGAAACCGNNNNNNC; wild type is GGAAACCGCUACUAC (upper and lower strand joined, each 5' to 3', the first 7 letters being the upper strand, closing pairs included).

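A pool of all variants was put on leaves of three Nicotiana benthamiana plants. Progeny were sequenced from the inoculated region (day 5), the margin of the inoculated leaf (day 10) and systemic leaves (day 12).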

Values are reads per thousand in the sample; higher means more abundant, 0 means not found. Each site shows the three plants. "Pool" is the share in the plasmid pool used as inoculum, on the same scale. The inoculated region was read from the minus strand, the other sites from the plus strand. Sequences that differ at fixed positions probably stem from PCR or sequencing errors, and defective variants can be carried along by functional ones. Samples held 43,870 to 66,106 reads, so the smallest values rest on one or two reads. For reference, wild type rose from 33.9 per thousand in the pool to 202, 200, 159 (inoculated region), 724, 746, 710 (leaf margin) and 856, 883, 880 (systemic leaves).

sequence	pool	inoculated region	leaf margin	systemic leaves
GGAAACCGACUCAAC	0.128	0.0328 / 0.0803 / 0.152	0.0162 / 0 / 0.0601	0 / 0 / 0
GGAAACCGACUCACC	0.208	0.115 / 0.112 / 0.0952	0 / 0 / 0	0 / 0 / 0
GGAAACCGACUCAGC	0.320	0.0655 / 0.0803 / 0.0952	0 / 0 / 0	0 / 0 / 0.0228
GGAAACCGACUCAUC	0.224	0.229 / 0.257 / 0.190	0.0323 / 0.0445 / 0	0.0161 / 0 / 0
GGAAACCGACUCCAC	0.288	0.147 / 0.0964 / 0.0952	0.0162 / 0 / 0	0.0322 / 0 / 0
GGAAACCGACUCCCC	0.288	0.0328 / 0.112 / 0.133	0 / 0.0223 / 0	0 / 0 / 0
GGAAACCGACUCCGC	0.144	0.0819 / 0.0643 / 0.0571	0 / 0 / 0	0 / 0 / 0
GGAAACCGACUCCUC	0.176	0.0983 / 0.0482 / 0.0571	0.0162 / 0 / 0	0 / 0 / 0
GGAAACCGACUCGAC	0.224	0.131 / 0.145 / 0.0952	0 / 0 / 0.0200	0 / 0 / 0
GGAAACCGACUCGCC	0.352	0.0983 / 0.129 / 0.0762	0 / 0 / 0	0 / 0 / 0
GGAAACCGACUCGGC	0.272	0.0819 / 0.0964 / 0.0762	0.0162 / 0 / 0	0 / 0 / 0
GGAAACCGACUCGUC	0.208	0.147 / 0.112 / 0.0571	0 / 0 / 0	0.0161 / 0 / 0
GGAAACCGACUCUAC	0.192	0.0491 / 0.112 / 0.0762	0 / 0 / 0.0200	0.0161 / 0 / 0
GGAAACCGACUCUCC	0.208	0.115 / 0.161 / 0.133	0.0162 / 0.0223 / 0	0 / 0 / 0
GGAAACCGACUCUGC	0.144	0.0819 / 0.145 / 0.0571	0 / 0 / 0.0401	0 / 0 / 0.0228
GGAAACCGACUCUUC	0.208	0.115 / 0.0482 / 0.0571	0 / 0 / 0.0601	0 / 0 / 0
GGAAACCGACUGAAC	0.176	0.0328 / 0.0964 / 0.0952	0 / 0 / 0	0 / 0 / 0
GGAAACCGACUGACC	0.272	0.0328 / 0.0964 / 0.0381	0 / 0 / 0.0801	0.0161 / 0 / 0
GGAAACCGACUGAGC	0.272	0.0983 / 0.0482 / 0.114	0 / 0 / 0	0 / 0 / 0
GGAAACCGACUGAUC	0.192	0.131 / 0.0643 / 0.152	0 / 0 / 0.0401	0 / 0 / 0
GGAAACCGACUGCAC	0.272	0.164 / 0.0803 / 0.0381	0 / 0 / 0	0 / 0 / 0
GGAAACCGACUGCCC	0.304	0.0655 / 0.177 / 0.0571	0 / 0 / 0.0200	0 / 0 / 0
GGAAACCGACUGCGC	0.288	0.0655 / 0.0803 / 0.133	0 / 0.0223 / 0.0801	0.0161 / 0 / 0
GGAAACCGACUGCUC	0.368	0.0491 / 0.177 / 0.133	0 / 0.0445 / 0.0401	0.0161 / 0 / 0
GGAAACCGACUGGAC	0.272	0.131 / 0.0964 / 0.0952	0 / 0 / 0	0.0322 / 0 / 0
GGAAACCGACUGGCC	0.208	0.115 / 0.0643 / 0.0381	0.0162 / 0 / 0	0 / 0 / 0
GGAAACCGACUGGGC	0.256	0.147 / 0.0964 / 0.0381	0 / 0 / 0	0 / 0 / 0
GGAAACCGACUGGUC	0.256	0.0819 / 0.0803 / 0.0762	0.0162 / 0 / 0.0200	0 / 0 / 0.0228
GGAAACCGACUGUAC	0.224	0.344 / 0.353 / 0.267	0.113 / 0.0445 / 0.140	0.0483 / 0.0756 / 0.0456
GGAAACCGACUGUCC	0.480	0.0491 / 0.112 / 0.190	0 / 0 / 0	0 / 0 / 0
GGAAACCGACUGUGC	0.144	0.0983 / 0.112 / 0.152	0 / 0 / 0	0 / 0 / 0
GGAAACCGACUGUUC	0.192	0.557 / 0.450 / 0.552	0.129 / 0.111 / 0.100	0.0161 / 0 / 0
GGAAACCGACUUAAC	0.112	0.197 / 0.161 / 0.0190	0 / 0 / 0.0200	0 / 0 / 0
GGAAACCGACUUACC	0.208	0.0983 / 0.0482 / 0.0762	0.0162 / 0 / 0	0 / 0 / 0
GGAAACCGACUUAGC	0.208	0.0491 / 0.0803 / 0.0952	0.0162 / 0.0223 / 0	0 / 0 / 0
GGAAACCGACUUAUC	0.160	0.229 / 0.289 / 0.190	0 / 0 / 0.0801	0.0161 / 0 / 0
GGAAACCGACUUCAC	0.288	0.180 / 0.0964 / 0.0952	0.0162 / 0.0223 / 0.0200	0 / 0 / 0
GGAAACCGACUUCCC	0.176	0.0983 / 0.145 / 0.171	0 / 0.0223 / 0.0401	0 / 0 / 0
GGAAACCGACUUCGC	0.208	0.0655 / 0.129 / 0.0571	0 / 0 / 0.0200	0 / 0 / 0
GGAAACCGACUUCUC	0.160	0.115 / 0.0964 / 0.0381	0 / 0.0223 / 0.0401	0 / 0 / 0
GGAAACCGACUUGAC	0.272	0.115 / 0.0321 / 0.0762	0 / 0 / 0	0 / 0 / 0
GGAAACCGACUUGCC	0.176	0.0819 / 0.0964 / 0.152	0 / 0 / 0.0401	0 / 0 / 0
GGAAACCGACUUGGC	0.192	0.131 / 0.0964 / 0.0952	0.0647 / 0 / 0	0 / 0 / 0
GGAAACCGACUUGUC	0.208	0.180 / 0.209 / 0.0571	0 / 0.0445 / 0	0 / 0 / 0
GGAAACCGACUUUAC	0.208	0.0655 / 0.209 / 0.0762	0 / 0.0223 / 0.0401	0 / 0 / 0
GGAAACCGACUUUCC	0.304	0.0983 / 0.0803 / 0.0381	0 / 0 / 0	0 / 0 / 0
GGAAACCGACUUUGC	0.160	0.0655 / 0.145 / 0.114	0 / 0 / 0	0 / 0 / 0
GGAAACCGACUUUUC	0.240	0.213 / 0.209 / 0.114	0.0323 / 0 / 0.0401	0.0161 / 0 / 0
GGAAACCGAGAAAAC	0.256	0.262 / 0.337 / 0.457	3.82 / 0.0891 / 0.120	0.0966 / 0 / 0
GGAAACCGAGAAACC	0.256	0.0328 / 0.145 / 0.114	0.0162 / 0 / 0	0.0483 / 0.0151 / 0
GGAAACCGAGAAAGC	0.256	0.311 / 0.353 / 0.190	0.0485 / 0.0223 / 0	0 / 0 / 0
GGAAACCGAGAAAUC	0.256	0.0328 / 0.0803 / 0.0571	0.0162 / 0.0223 / 0.0200	0 / 0 / 0
GGAAACCGAGAACAC	0.176	0.475 / 0.402 / 0.362	0.146 / 0.111 / 0.100	0.0483 / 0 / 0
GGAAACCGAGAACCC	0.288	0.147 / 0.112 / 0.0381	0 / 0 / 0	0 / 0 / 0
GGAAACCGAGAACGC	0.144	0.115 / 0.0482 / 0.114	0.0162 / 0 / 0	0 / 0 / 0
GGAAACCGAGAACUC	0.176	0.115 / 0.0161 / 0.0952	0 / 0 / 0	0.0161 / 0 / 0
GGAAACCGAGAAGAC	0.176	0.295 / 0.209 / 0.419	0.0323 / 0 / 0.0401	0 / 0 / 0
GGAAACCGAGAAGCC	0.256	0.0491 / 0.0482 / 0.133	0 / 0.0223 / 0	0 / 0 / 0
GGAAACCGAGAAGGC	0.160	0.115 / 0.145 / 0.248	0 / 0 / 0	0.0161 / 0 / 0
GGAAACCGAGAAGUC	0.0960	0.131 / 0.0643 / 0.133	0 / 0.0445 / 0.0401	0 / 0 / 0
GGAAACCGAGAAUAC	0.304	0.426 / 0.289 / 0.362	0.129 / 0.111 / 0.180	0.0483 / 0.0454 / 0.0684
GGAAACCGAGAAUCC	0.288	0.180 / 0.145 / 0.0762	0 / 0 / 0	0 / 0 / 0
GGAAACCGAGAAUGC	0.288	0.295 / 0.498 / 0.362	0.129 / 0.156 / 0.160	0.0161 / 0 / 0
GGAAACCGAGAAUUC	0.128	0.278 / 0.337 / 0.324	0.0970 / 0.0223 / 0.120	0.0322 / 0.0605 / 0.0912
GGAAACCGAGACAAC	0.208	0.229 / 0.337 / 0.343	0.0323 / 0.0668 / 0.100	0.0644 / 0 / 0

Extract of 8 entries:

GGAAACCGAGAAGGC (pool 0.160) gave inoculated region 0.115 / 0.145 / 0.248; leaf margin 0 / 0 / 0; systemic leaves 0.0161 / 0 / 0.
GGAAACCGACUCUGC (pool 0.144) gave inoculated region 0.0819 / 0.145 / 0.0571; leaf margin 0 / 0 / 0.0401; systemic leaves 0 / 0 / 0.0228.
GGAAACCGACUCAGC (pool 0.320) gave inoculated region 0.0655 / 0.0803 / 0.0952; leaf margin 0 / 0 / 0; systemic leaves 0 / 0 / 0.0228.
GGAAACCGACUCACC (pool 0.208) gave inoculated region 0.115 / 0.112 / 0.0952; leaf margin 0 / 0 / 0; systemic leaves 0 / 0 / 0.
GGAAACCGACUUGCC (pool 0.176) gave inoculated region 0.0819 / 0.0964 / 0.152; leaf margin 0 / 0 / 0.0401; systemic leaves 0 / 0 / 0.
GGAAACCGACUGCGC (pool 0.288) gave inoculated region 0.0655 / 0.0803 / 0.133; leaf margin 0 / 0.0223 / 0.0801; systemic leaves 0.0161 / 0 / 0.
GGAAACCGACUGUAC (pool 0.224) gave inoculated region 0.344 / 0.353 / 0.267; leaf margin 0.113 / 0.0445 / 0.140; systemic leaves 0.0483 / 0.0756 / 0.0456.
GGAAACCGACUGACC (pool 0.272) gave inoculated region 0.0328 / 0.0964 / 0.0381; leaf margin 0 / 0 / 0.0801; systemic leaves 0.0161 / 0 / 0.